Data from US6960606B2, “Adamantyl Thiazole Thioureas” (Parker Hughes Institute, priority 2000, dated 2005).

test system: HIV-1 strain HTLVIIIB; test: Inhibition of HIV-1 HTLVIIIB replication in PBMC (p24 antigen EIA); format: cell-based; conditions: selectivity index, SI=CC50/IC50
Method: Normal human peripheral blood mononuclear cells (PBMNC) from HIV-negative donors were cultured 72 hours in RPMI 1640 supplemented with 20% (v/v) heat-inactivated fetal bovine serum (FBS), 3% interleukin-2, 2 mM L-glutamine, 25 mM HEPES, 2 g/L NaHCO3, 50 μg/mL gentamicin, and 4 μg/mL phytohemagglutinin prior to exposure to the HIV-1 strain HTLVIIIB. The cells were then infected with virus at a multiplicity of infection (MOI) of 0.1 during a 1-hour adsorption period at 37° C. in a humidified 5% CO2 atm. Subsequently, cells were cultured in 96-well microtiter plates (100 μl/well; 2×10^6 cells/mL) in the presence of various inhibitor concentrations. Aliquots of culture supernatants were removed from the wells on the 7th day after infection for p24 antigen assays. The applied p24 enzyme immunoassay (EIA) was the unmodified kinetic assay commercially available from Coulter Corporation/Immunotech, Inc. (Westbrooke, Me.), which utilizes a murine mAb to HIV core protein coated onto microwell strips to which the antigen present in the test culture supernatant samples binds. Percent viral inhibition was calculated by comparing the p24 values from the test substance-treated infected cells with p24 values from untreated infected cells (i.e., virus controls). The effects of various treatments on cell viability were also examined and the results were expressed as the cytotoxic concentration (CC)50 values. The selectivity indices (SI) were calculated using the formula: SI=CC50/IC50.

Substance | SI
N-[1-(1-Furoylmethyl)]-N′-[2-(thiazolyl)]thiourea [Compound 6] | > 100,000
N-[3-(Pyrrolidinone)propyl]-N′-[2-(thiazolyl)]thiourea [Compound 12] | 2
N-[2-(2-Thiophenylethyl)]-N′-[2-(thiazolyl)]thiourea [Compound 1] | 71,000
N-[2-Pyridylethyl]-N′-[2-(thiazolyl)]thiourea [Compound 11] | 100
N-[3-(2-Imidazole)propyl]-N′-[2-(thiazolyl)]thiourea [Compound 7] | 35,000
N-[1-(1-Adamantyl)methyl]-N′-[2-(thiazolyl)]thiourea [Compound 5] | 40,000
N-[2-(Phenoxyethyl)]-N′-[2-(thiazolyl)]thiourea [Compound 3] | >100,000
N-[2-(4-Methylphenyl)ethyl]-N′-[2-(thiazolyl)]thiourea [Compound 4] | 1429
N-[2-(2-Indole)ethyl]-N′-[2-(thiazolyl)]thiourea [Compound 8] | 28,000
